Results as given in ChEMBL document CHEMBL1148773 (J Med Chem, 2007).

Target: Protease (Human immunodeficiency virus 1, UniProt Q9YQ12)
Assay: Inhibition of wild type HIV1 protease

Question: How did the Ki turn out when `CC(C)CN(C[C@@H](O)[C@H](Cc1ccccc1)NC(=O)O[C@H]1CO[C@H]2OCC[C@H]21)S(=O)(=O)c1ccc2c(c1)OCO2` was run?
Answer: 0.27 nM
